Values quoted from earlier work in PMC8606745 (Frontiers in Microbiology, 2021).

How the values were obtained:
Gram-negative bacteria [1] = conditions: Gram-negative bacteria against which activity was described; ref column References of Table 1; cited from earlier work
Gram-negative bacteria [2] = conditions: Gram-negative bacteria against which activity was described; ref column References of Table 1; cited from earlier work; remark: listed apart in the source

CC[C@H](C)[C@H](NC(=O)[C@H](C)NC(=O)[C@H](CCCCN)NC(=O)[C@@H]1CCCN1C(=O)[C@@H](NC(=O)[C@H](CC(C)C)NC(=O)[C@H](CO)NC(=O)[C@H](Cc1ccccc1)NC(=O)[C@H](CC(C)C)NC(=O)[C@@H](N)Cc1ccccc1)[C@@H](C)CC)C(=O)NCC(=O)NCC(=O)N[C@@H](CC(C)C)C(=O)N[C@H](C(=O)N[C@@H](CO)C(=O)N[C@@H](C)C(=O)N[C@@H](Cc1ccccc1)C(=O)N[C@@H](CCCCN)C(N)=O)[C@@H](C)CC [AamAP-S1]
Described activity: Antibacterial (Gram-negative bacteria [1]): Ec

CC[C@@H](C)[C@@H](NC(=O)[C@H](N)CCCNC(=N)N)C(=O)N[C@@H](C(=O)N[C@H](Cc1c[nH]c2ccccc12)C(=O)N[C@@H](C(=O)N[C@H](CCCNC(=N)N)C(=O)N[C@@H](C(=O)N[C@H](CCCNC(=N)N)C(=O)N[C@H](CCCNC(=N)N)C(=O)N[C@H](Cc1c[nH]c2ccccc12)C(=O)N[C@H](Cc1ccccc1)C(=O)N[C@@H](C(N)=O)C(C)C)[C@H](C)CC)C(C)C)C(C)C [RIJK2]
Described activity: Antibiofilm (Gram-negative bacteria [2]): Pa, Kp

CC[C@H](C)[C@H](NC(=O)[C@H](CCCNC(=N)N)NC(=O)[C@H](Cc1c[nH]c2ccccc12)NC(=O)[C@H](CCC(N)=O)NC(=O)[C@@H](N)C(C)C)C(=O)N[C@@H](CCCNC(=N)N)C(=O)N[C@H](C(=O)N[C@@H](CCCNC(=N)N)C(=O)N[C@H](C(=O)N[C@H](C(=O)N[C@@H](CCCCN)C(=O)N[C@@H](CCCCN)C(N)=O)[C@@H](C)CC)C(C)C)C(C)C [Peptide 1026]
Described activity: Antibacterial (Gram-negative bacteria [1]): Pa, Bc
Described activity: Antibiofilm (Gram-negative bacteria [2]): Pa, Bc

CC[C@H](C)[C@H](NC(=O)[C@H](CCCNC(=N)N)NC(=O)[C@H](Cc1ccccc1)NC(=O)[C@H](CCCNC(=N)N)NC(=O)[C@@H](N)CCCCN)C(=O)N[C@@H](CCCNC(=N)N)C(=O)N[C@H](C(=O)N[C@@H](CCCNC(=N)N)C(=O)N[C@H](C(N)=O)C(C)C)C(C)C [Peptide 1037]
Described activity: Antibacterial (Gram-negative bacteria [1]): –
Described activity: Antibiofilm (Gram-negative bacteria [2]): Pa, Bc

CC[C@H](C)[C@H](NC(=O)[C@H](CCCNC(=N)N)NC(=O)[C@H](Cc1ccccc1)NC(=O)[C@H](CCC(N)=O)NC(=O)[C@@H](N)C(C)C)C(=O)N[C@@H](CCCNC(=N)N)C(=O)N[C@H](C(=O)N[C@@H](CCCNC(=N)N)C(=O)N[C@H](C(=O)N[C@H](C(=O)N[C@H](C(=O)N[C@@H](CCCNC(=N)N)C(=O)N[C@@H](CCCCN)C(N)=O)[C@@H](C)CC)C(C)C)[C@@H](C)CC)C(C)C [Peptide 1036]
Described activity: Antibacterial (Gram-negative bacteria [1]): Pa, Bc
Described activity: Antibiofilm (Gram-negative bacteria [2]): Pa, Bc

CC[C@H](C)[C@H](NC(=O)[C@H](CCCNC(=N)N)NC(=O)[C@H](Cc1ccccc1)NC(=O)[C@H](CCC(N)=O)NC(=O)[C@@H](N)CCCCN)C(=O)N[C@@H](CCCNC(=N)N)C(=O)N[C@H](C(=O)N[C@@H](CCCNC(=N)N)C(=O)N[C@H](C(N)=O)C(C)C)C(C)C [Peptide 1029]
Described activity: Antibacterial (Gram-negative bacteria [1]): Pa, Bc
Described activity: Antibiofilm (Gram-negative bacteria [2]): Pa, Bc
